US20090281028A1

T1: human Kv1.1 channel (human), Q09470
T1 chain: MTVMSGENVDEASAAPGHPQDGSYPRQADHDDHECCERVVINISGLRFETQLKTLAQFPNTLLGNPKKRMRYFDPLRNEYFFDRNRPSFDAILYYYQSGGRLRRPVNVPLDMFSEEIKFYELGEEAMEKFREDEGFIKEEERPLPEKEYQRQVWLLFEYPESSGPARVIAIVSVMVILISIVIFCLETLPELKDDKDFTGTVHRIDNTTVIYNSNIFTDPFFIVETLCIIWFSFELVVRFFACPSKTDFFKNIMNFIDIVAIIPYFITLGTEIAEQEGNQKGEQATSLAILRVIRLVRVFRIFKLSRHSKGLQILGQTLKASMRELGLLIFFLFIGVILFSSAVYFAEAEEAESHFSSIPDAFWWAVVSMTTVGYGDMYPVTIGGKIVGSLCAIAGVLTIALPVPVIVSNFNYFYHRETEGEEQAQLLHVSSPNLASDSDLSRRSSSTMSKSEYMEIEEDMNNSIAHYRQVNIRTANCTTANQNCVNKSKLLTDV


What was measured:
[1] = molecular target: human Kv1.3 channel (human), P22001; assay: cell-based or functional assay
[2] = molecular target: T1, human Kv1.1 channel (human), Q09470; assay: cell-based or functional assay

Row | Binder | Analog IC50 Divided by Ala-1 IC50, IFNg [1] | Analog IC50 Divided by Ala-1 IC50, IL2 [1] | WB/IFNg IC50 (human whole blood) [1] | WB/IL-2 IC50 (human whole blood) [1] | further results
1 | GVIINVKCKISPQCLKPCKDAGIRFGKCINGKCACTPK (modifications not checked) [OSK1 analog Pro-12, Lys-16, Asp-20, Ile-23, Ile-29, Ala-34] | 4.29 fold | 4.21 fold | – | – | –
2 | GVIINVKCKISRACLEPCKKAGMRFGKCMNGKCHCTPK (modifications not checked) [OSK1 analog Ala-13] | 1.11 fold | 1.21 fold | – | – | –
3 | GVIINVKCKISRQCLEPCKKAGMRFGKCMEGKCHCTPK (modifications not checked) [OSK1 N30E] | – | – | 24400 pM | 14000 pM | –
4 | GVIINVKCKISRQCLAPCKKAGMRFGKCMNGKCHCTPK (modifications not checked) [OSK1 analog Ala-16] | 0.84 fold | 0.83 fold | – | – | Average IC50 (nM) IFNg, thapsigargin-induced, 50% human whole blood [1]: 0.101 nM; Average IC50 (nM) IL-2, thapsigargin-induced, 50% human whole blood [1]: 0.101 nM
5 | GVIINVKCKISRQCLEPCKKAGARFGKCMNGKCHCTPK (modifications not checked) [OSK1 analog Ala-23] | 2.3 fold | 2.25 fold | – | – | –
6 | GVIINVKCKISAQCLEPCKKAGMRFGKCMNGKCHCTPK (modifications not checked) [OSK1 analog Ala-12] | 1.3 fold | 1.01 fold | – | – | –
7 | GVIANVKCKISRQCLEPCKKAGMRFGKCMNGKCHCTPK (modifications not checked) [OSK1 analog Ala-4] | 0.73 fold | 0.91 fold | – | – | –
8 | GVIINVKCKISRQCLEPCKKAGMRFGKCMAGKCHCTPK (modifications not checked) [OSK1 analog Ala-30] | 5.33 fold | 7.96 fold | – | – | –
9 | GVIINVKCKISRQCLEPCKKAGMRFGKCANGKCHCTPK (modifications not checked) [OSK1 analog Ala-29] | 2.44 fold | 3.66 fold | – | – | –
10 | GVIIAVKCKISRQCLEPCKKAGMRFGKCMNGKCHCTPK (modifications not checked) [OSK1 N5A] | – | – | 67 pM | 67.9 pM | Kv1.1 IC50 (IonWorks electrophysiology) [2]: 14 pM; Kv1.3 IC50 (IonWorks electrophysiology) [1]: 160 pM
11 | GAIINVKCKISRQCLEPCKKAGMRFGKCMNGKCHCTPK (modifications not checked) [OSK1 analog Ala-2] | 0.87 fold | 0.72 fold | – | – | Average IC50 (nM) IFNg, thapsigargin-induced, 50% human whole blood [1]: 0.103 nM
12 | GVIINVACKISRQCLEPCKKAGMRFGKCMNGKCHCTPK (modifications not checked) [OSK1 analog Ala-7] | 0.49 fold | 0.55 fold | – | – | –
13 | GVIINVKCKISRQCLEPCKKAGMRFGKCMNGKCHCTPA (modifications not checked) [OSK1 K38A] | – | – | 343 pM | 221 pM | –
14 | GVIINVKCAISRQCLEPCKKAGMRFGKCMNGKCHCTPK (modifications not checked) [OSK1 analog Ala-9] | 0.6 fold | 0.65 fold | – | – | –
15 | GVIINVKCAISRQCLEPCKKAGMRFGKCMNGKCHCTPK (modifications not checked) [OSK1 K9A] | – | – | 71.1 pM | 79.6 pM | Kv1.1 IC50 (IonWorks electrophysiology) [2]: 40.6 pM; Kv1.3 IC50 (IonWorks electrophysiology) [1]: 166 pM
16 | GVIINAKCKISRQCLEPCKKAGMRFGKCMNGKCHCTPK (modifications not checked) [OSK1 V6A] | – | – | 80.5 pM | 73.3 pM | Kv1.1 IC50 (IonWorks electrophysiology) [2]: 12.8 pM; Kv1.3 IC50 (IonWorks electrophysiology) [1]: 174 pM
17 | GVIINVKCKISRQCLEPCKKAGMRFGKCMNGKCHCAPK (modifications not checked) [OSK1 T36A] | – | – | 724 pM | 728 pM | –
18 | AVIINVKCKISRQCLEPCKKAGMRFGKCMNGKCHCTPK (modifications not checked) [OSK1 G1A] | – | – | 119 pM | 122 pM | Kv1.1 IC50 (IonWorks electrophysiology) [2]: 13.9 pM
19 | GVIINVKCKISRQCAEPCKKAGMRFGKCMNGKCHCTPK (modifications not checked) [OSK1 analog Ala-15] | 0.9 fold | 0.88 fold | – | – | Average IC50 (nM) IL-2, thapsigargin-induced, 50% human whole blood [1]: 0.107 nM
20 | GVAINVKCKISRQCLEPCKKAGMRFGKCMNGKCHCTPK (modifications not checked) [OSK1 I3A] | – | – | 99.2 pM | 88.3 pM | Kv1.1 IC50 (IonWorks electrophysiology) [2]: 10.6 pM; Kv1.3 IC50 (IonWorks electrophysiology) [1]: 96.6 pM

Row | Binder | Analog IC50 Divided by Ala-1 IC50, IFNg [1] | Analog IC50 Divided by Ala-1 IC50, IL2 [1] | WB/IFNg IC50 (human whole blood) [1] | WB/IL-2 IC50 (human whole blood) [1] | further results
21 | GVIINVKCKISRQCLEPCAKAGMRFGKCMNGKCHCTPK (modifications not checked) [OSK1 analog Ala-19] | 1.36 fold | 1.33 fold | – | – | –
22 | GVIINVKCKISRQCLEPCKKAGMRFGKCMNGACHCTPK (modifications not checked) [OSK1 K32A] | – | – | 34 pM | 41.3 pM | –
23 | GVIINVKCKISRQCLEPCKKAGMRFGACMNGKCHCTPK (modifications not checked) [OSK1 analog Ala-27] | 13.2 fold | 28.3 fold | – | – | –
24 | GVIINVKCKASRQCLEPCKKAGMRFGKCMNGKCHCTPK (modifications not checked) [OSK1 analog Ala-10] | 0.25 fold | 0.41 fold | – | – | Average IC50 (nM) IL-2, thapsigargin-induced, 50% human whole blood [1]: 0.05 nM
25 | GVIIAVKCKISRQCLEPCKKAGMRFGKCMNGKCHCTPK (modifications not checked) [OSK1 analog Ala-5] | 0.56 fold | 0.56 fold | – | – | Average IC50 (nM) IFNg, thapsigargin-induced, 50% human whole blood [1]: 0.067 nM
26 | GVIINVKCKISRQCLEPCKKAGMEFGKCMNGKCHCTPK (modifications not checked) [OSK1 R24E] | – | – | 9540 pM | 7160 pM | –
27 | GVIINVKCKISRQCLEACKKAGMRFGKCMNGKCHCTPK (modifications not checked) [OSK1 analog Ala-17] | 1.45 fold | 1.42 fold | – | – | –
28 | GAIINVKCKISRQCLEPCKKAGMRFGKCMNGKCHCTPK (modifications not checked) [OSK1 V2A] | – | – | 104 pM | 88.4 pM | Kv1.1 IC50 (IonWorks electrophysiology) [2]: 9.94 pM; Kv1.3 IC50 (IonWorks electrophysiology) [1]: 81.8 pM
29 | AVIINVKCKISRQCLEPCKKAGMRFGKCMNGKCHCTPK (modifications not checked) [OSK1 analog Ala-1] | 1 fold | 1 fold | – | – | –
30 | GVIINVKCKISRQCLEPCKKAGMRFGKCMNGKCHCTAK (modifications not checked) [OSK1 P37A] | – | – | 850 pM | 956 pM | –
31 | GVIINVKCKISRQCLEPCKKAAMRFGKCMNGKCHCTPK (modifications not checked) [OSK1 analog Ala-22] | 59.3 fold | 58.1 fold | – | – | Average IC50 (nM) IFNg, thapsigargin-induced, 50% human whole blood [1]: 7.09 nM; Average IC50 (nM) IL-2, thapsigargin-induced, 50% human whole blood [1]: 7.09 nM
32 | GVIINVKCKASRQCLEPCKKAGMRFGKCMNGKCHCTPK (modifications not checked) [OSK1 I10A] | – | – | 29.6 pM | 50 pM | Kv1.1 IC50 (IonWorks electrophysiology) [2]: 4.46 pM; Kv1.3 IC50 (IonWorks electrophysiology) [1]: 91.2 pM
33 | GVAINVKCKISRQCLEPCKKAGMRFGKCMNGKCHCTPK (modifications not checked) [OSK1 analog Ala-3] | 0.83 fold | 0.72 fold | – | – | –
34 | GVIANVKCKISRQCLEPCKKAGMRFGKCMNGKCHCTPK (modifications not checked) [OSK1 I4A] | – | – | 87.3 pM | 111 pM | Kv1.1 IC50 (IonWorks electrophysiology) [2]: 16.9 pM; Kv1.3 IC50 (IonWorks electrophysiology) [1]: 195 pM
35 | GVIINVKCKISRQCLEPCKAAGMRFGKCMNGKCHCTPK (modifications not checked) [OSK1 analog Ala-20] | 3.17 fold | 3.11 fold | – | – | –
36 | GVIINVKCKISRQCLEPCKKAGMRAGKCMNGKCHCTPK (modifications not checked) [OSK1 analog Ala-25] | 25.8 fold | 25.2 fold | – | – | Average IC50 (nM) IFNg, thapsigargin-induced, 50% human whole blood [1]: 3.08 nM; Average IC50 (nM) IL-2, thapsigargin-induced, 50% human whole blood [1]: 3.08 nM
37 | GVIINVKCKISRQCLEPCKKAGMRFGKCMNGKCACTPK (modifications not checked) [OSK1 analog Ala-34] | 0.48 fold | 0.59 fold | – | – | –
38 | GVIINAKCKISRQCLEPCKKAGMRFGKCMNGKCHCTPK (modifications not checked) [OSK1 analog Ala-6] | 0.67 fold | 0.6 fold | – | – | Average IC50 (nM) IFNg, thapsigargin-induced, 50% human whole blood [1]: 0.0805 nM
39 | GVIINVACKISRQCLEPCKKAGMRFGKCMNGKCHCTPK (modifications not checked) [OSK1 K7A] | – | – | 59.1 pM | 67.5 pM | Kv1.1 IC50 (IonWorks electrophysiology) [2]: 21.9 pM; Kv1.3 IC50 (IonWorks electrophysiology) [1]: 181 pM
